Compound potency records, mixed from different reports. Data source: NIAID ChemDB in PubChem.

Common to all: whole-cell or culture tests; organism: HIV-1; measure: fold resistance

Blank or dashed fields: not listed here.

smiles	mutations	read by	cells	strain	value
Cc1cc(Cl)cc(S(=O)(=O)c2cccc(N)c2C#N)c1	RT-Y181C	β-galactosidase	HeLa + HELA CD4+	-	1110
CC(C)=CCN1c2cc(Cl)cc3[nH]c(=S)n(c23)C[C@@H]1C	RT-L74V K101E	-	MT-4	-	4
CC(C)=CCOc1cc(NC(=S)c2ccoc2C)ccc1Cl	RT-V108I M184I	cytopathic effect	CEM	D-3 (RT-V108I M184I)	2
CCN[C@H]1CO[C@@H]2OCC[C@H](OC(=O)N[C@@H](Cc3ccccc3)[C@H](O)CN(CC(C)C)S(=O)(=O)c3ccc4nc(NC5CC5)sc4c3)[C@@H]21	L10I I15V K20R L24I V32I M36I M46I L63P K70Q V82A I84V L89M	p24 / luminescence	MT-4	NL4-3	1.5
CCOP(=O)(COc1ccc(C[C@H](NC(=O)O[C@H]2CO[C@H]3OCC[C@H]32)[C@H](O)CN(CC(C)C)S(=O)(=O)c2ccc(OC)cc2)cc1)OCC	8374-P36 GS-8374-resistant	ATP	MT-2	IIIB	3.5
Cc1cn([C@H]2C[C@H](N=[N+]=[N-])[C@@H](CO)O2)c(=O)[nH]c1=O	RT-M41L E44D D67N T69D V118I M184V L210W T215Y	luciferase	HeLa	NRTI resistant	54.7
COc1cc(C(F)(F)F)cc(S(=O)(=O)c2cccc(N)c2C#N)c1	RT-Y188C	β-galactosidase	HeLa + HELA CD4+	-	21.4
Cc1cn([C@H]2C[C@H](N=[N+]=[N-])[C@@H](CO)O2)c(=O)[nH]c1=O	D437N L441P	p24 / ELISA	MT-2	IIIB	1.3
Cc1cc(O)cc(S(=O)(=O)c2cccc(N)c2C#N)c1	RT-G190A	β-galactosidase	HeLa + HELA CD4+	-	10.5
Cc1ccnc2c1NC(=O)c1cccnc1N2C1CC1	RT-M184V	XTT	CEM + CEM-SS	3TC-resistant (RT M184V)	1
Cc1ccnc2c1NC(=O)c1cccnc1N2C1CC1	RT-K101E	cytopathic effect / XTT	CEM + CEM-SS	NL4-3 (RT K101E)	15
Nc1nc(=O)n([C@@H]2CS[C@H](CO)O2)cc1F	RT-V75T	plaque count	CD4+HELA + HeLa	HXB2	3.29
CC(C)CN(C[C@@H](O)[C@H](Cc1ccccc1)NC(=O)O[C@H]1CCOC1)S(=O)(=O)c1ccc(N)cc1	L10I L33I M36I M46I I54V K55R I62V L63P A71V G73S V82T L90M I93L	p24 / luminescence	MT-4	NL4-3	>27
Cc1cn([C@H]2C[C@H](N=[N+]=[N-])[C@@H](CO)O2)c(=O)[nH]c1=O	RT-V108I M184I	cytopathic effect	CEM	D-3 (RT-V108I M184I)	2
Cc1cn([C@H]2C[C@H](N=[N+]=[N-])[C@@H](CO)O2)c(=O)[nH]c1=O	RT-V179D	XTT	CEM + CEM-SS	NL4-3	3
Nc1nc(=O)n([C@@H]2CS[C@H](CO)O2)cc1F	RT-M41L Y181C M184V T215Y	plaque count	HT4 + HT4 LacZ-1	RTMN(181 184) (RT M41L Y181C M184V T215Y)	>5560
Cc1cn([C@H]2C[C@H](N=[N+]=[N-])[C@@H](CO)O2)c(=O)[nH]c1=O	RT-Y181C K101E	cytopathic effect / XTT	CEM + CEM-SS	UC10-resistant (RT Y181C K101E)	20
Nc1ccn([C@H]2C=C[C@@H](CO)O2)c(=O)n1	RT-M184V	plaque count	CD4+HELA + HeLa	HXB2	1.11
Cc1cn([C@@H]2O[C@H](CO[Si](C)(C)C(C)(C)C)[C@@]3(OS(=O)(=O)C=C3N)[C@H]2O[Si](C)(C)C(C)(C)C)c(=O)[nH]c1=O	RT-Y181C	cytopathic effect / XTT	CEM + CEM-SS	UC82-R (RT-Y181C)	>200
Cc1cc(S(N)(=O)=O)ccc1NC(=O)COc1ccc(Cl)cc1C(=O)c1cc(Cl)cc(C#N)c1	RT-K103N L100I	β-galactosidase	MAGI	NNRTI-resistant (RT K103N L100I)	2.88
C#C[C@@]1(CO)C=C[C@H](n2cc(C)c(=O)[nH]c2=O)O1	RT-K65R	β-galactosidase	MAGI (CCR5) + MAGI	HXB2	0.86
C/C=C/CSc1cc(NC(=S)c2ccsc2C)ccc1Cl	RT-Y181C	cytopathic effect / XTT	CEM + CEM-SS	NL4-3 (RT Y181C)	16
Cc1cn([C@H]2C=C[C@@H](CO)O2)c(=O)[nH]c1=O	RT-K103N	β-galactosidase	MAGI (CCR5) + MAGI	NL4-3	0.84
CC(C)CN(C[C@@H](O)[C@H](Cc1ccccc1)NC(=O)O[C@H]1CCOC1)S(=O)(=O)c1ccc(N)cc1	D437N	p24 / ELISA	MT-2	IIIB	0.9
Cn1c2ccccc2c2c1cc(C#N)c(=O)n2-c1ccc([N+](=O)[O-])cc1	RT-K65R	luciferase	HeLa	NRTI resistant	0.2
CC(=O)c1ccc(C)cc1NC(C(N)=O)c1c(Cl)cccc1Cl	RT-Y181C	MTT	MAGI	IIIB	>222
Nc1ccn([C@H]2CC[C@@H](CO)O2)c(=O)n1	RT-T69D	plaque count	HELA-CD4+	JF4A (RT-T69D)	5.2
Fc1cccc(F)c1C1SCc2nc3ccccc3n21	RT-L100I	XTT	CEM + CEM-SS	Dihydrocostatolide-resistant (RT-L100I)	9.12
CCN[C@H]1CO[C@@H]2OCC[C@H](OC(=O)N[C@@H](Cc3cccc(OC)c3)[C@H](O)CN(CC(C)C)S(=O)(=O)c3ccc4nc(NC(C)C)sc4c3)[C@@H]21	L10I I15V K20R L24I V32I M36I M46I I54V I62V L63P K70Q V82A L88M	p24 / luminescence	MT-4	NL4-3	0.5
O=c1[nH]cnc2c1ncn2[C@H]1CC[C@@H](CO)O1	RT-M41L T215Y	plaque count	HT4 + HT4 LacZ-1	RTMN (RT-M41L T215Y)	2.4
CN[C@H]1CO[C@@H]2OCC[C@H](OC(=O)N[C@@H](Cc3ccccc3)[C@H](O)CN(CC(C)C)S(=O)(=O)c3ccc4nc(NC5CC5)sc4c3)[C@@H]21	L10F V32I L33F M46L I54M A71V	p24 / luminescence	MT-4	NL4-3	1
Cc1occc1C(=S)Nc1ccc(Cl)c(/C=N/OC(C)(C)C)c1	RT-P236L	cytopathic effect / XTT	CEM + CEM-SS	HEPT-resistant (RT P236L)	1
Cc1cc(Br)cc(S(=O)(=O)c2cccc(N)c2C#N)c1	RT-K103N V108I	β-galactosidase	HeLa + HELA CD4+	-	436
O=c1[nH]cnc2c1ncn2[C@H]1CC[C@@H](CO)O1	RT-D67N K70R Y181C T215Y K219Q	plaque count	HT4 + HT4 LacZ-1	RTMC (RT-Y181C)	1
Cc1cn([C@H]2C=C[C@@H](CO)O2)c(=O)[nH]c1=O	RT-A62T V118I M184V	luciferase	HeLa	Recombinant	1.1
Cc1ccnc2c1NC(=O)c1cccnc1N2C1CC1	RT-V108I M184I	cytopathic effect	CEM	D-3 (RT-V108I M184I)	3
COC(=O)N[C@H](C(=O)N[C@@H](Cc1ccccc1)[C@@H](O)CN(Cc1ccc(-c2ccccn2)cc1)NC(=O)[C@@H](NC(=O)OC)C(C)(C)C)C(C)(C)C	L10F V32I L33F M46L I54M A71V	p24 / luminescence	MT-4	NL4-3	0.8

The last 4 rows once more:

| smiles | mutations | read by | cells | strain | value |
|---|---|---|---|---|---|
| O=c1[nH]cnc2c1ncn2[C@H]1CC[C@@H](CO)O1 | RT-D67N K70R Y181C T215Y K219Q | plaque count | HT4 + HT4 LacZ-1 | RTMC (RT-Y181C) | 1 |
| Cc1cn([C@H]2C=C[C@@H](CO)O2)c(=O)[nH]c1=O | RT-A62T V118I M184V | luciferase | HeLa | Recombinant | 1.1 |
| Cc1ccnc2c1NC(=O)c1cccnc1N2C1CC1 | RT-V108I M184I | cytopathic effect | CEM | D-3 (RT-V108I M184I) | 3 |
| COC(=O)N[C@H](C(=O)N[C@@H](Cc1ccccc1)[C@@H](O)CN(Cc1ccc(-c2ccccn2)cc1)NC(=O)[C@@H](NC(=O)OC)C(C)(C)C)C(C)(C)C | L10F V32I L33F M46L I54M A71V | p24 / luminescence | MT-4 | NL4-3 | 0.8 |

Fold resistance: result on the changed form divided by that on wild type. Lines come from different laboratories, so protocols vary.